PubChem BioAssay AID624099, ICCB-Longwood – 2012

Test: 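Knock-downs relieving repression by E2 of an HPV18 LCR luciferase reporter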 (primary screen)
System: human C33A cervical carcinoma cells (HPV-negative) stably expressing BPV1 E2 and an HPV18 LCR luciferase reporter
Reagent: siRNA pool against human genes, 40 nM
Duration: 72 h
Read-out: 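Per-well luciferase luminescence, z-scored on each plate against the plate mean and SD with control wells left out, then averaged across three replicate plates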
Reading the numbers: mean z-score and z-score: higher = stronger reporter signal, weaker E2 silencing
Hit rule: 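Hit if mean z-score reaches 2 and two or more of three replicate z-scores also reach 2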
Shown is an unselected part of about 21,000 reagents tested. 497 of them (2.4%) count as active. 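Higher z means weaker E2 silencing; only reporter increases were scored, and knock-downs that hurt cell survival may mask genuine repressor factors.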 A number with no mark means an inactive call.

OCIAD1 → mean z-score: 1.09; z-score, replicate A: 1.17; z-score, replicate B: 1.06; z-score, replicate C: 1.03
MYO10 → mean z-score: -0.01; z-score, replicate A: 0.06; z-score, replicate B: 0.13; z-score, replicate C: -0.23
LINC00467 → mean z-score: 1.43; z-score, replicate A: 1.23; z-score, replicate B: 1.61; z-score, replicate C: 1.46
LINC00926 → mean z-score: 0.25; z-score, replicate A: 0.12; z-score, replicate B: 0.26; z-score, replicate C: 0.37
OR1L6 → mean z-score: -0.02; z-score, replicate A: 0.21; z-score, replicate B: 0.21; z-score, replicate C: -0.47
SH3GLB2 → mean z-score: 0.75; z-score, replicate A: 0.78; z-score, replicate B: 1.04; z-score, replicate C: 0.44
MED29 → mean z-score: 0.16; z-score, replicate A: -0.06; z-score, replicate B: 0.08; z-score, replicate C: 0.45
JSRP1 → mean z-score: -0.79; z-score, replicate A: -0.65; z-score, replicate B: -1; z-score, replicate C: -0.72
EXOC6 → mean z-score: -0.38; z-score, replicate A: -0.44; z-score, replicate B: -0.54; z-score, replicate C: -0.15

Next part; the last 2 above are carried over.
JSRP1 → mean z-score: -0.79; z-score, replicate A: -0.65; z-score, replicate B: -1; z-score, replicate C: -0.72
EXOC6 → mean z-score: -0.38; z-score, replicate A: -0.44; z-score, replicate B: -0.54; z-score, replicate C: -0.15
TPD52L3 → mean z-score: -0.04; z-score, replicate A: -0.34; z-score, replicate B: 0.32; z-score, replicate C: -0.11
AGA → mean z-score: 0.36; z-score, replicate A: 0.26; z-score, replicate B: 0.46; z-score, replicate C: 0.36
MAD2L1 → mean z-score: 0.89; z-score, replicate A: 0.94; z-score, replicate B: 0.99; z-score, replicate C: 0.75
ACTBL2 → mean z-score: 0.19; z-score, replicate A: 0.54; z-score, replicate B: 0.16; z-score, replicate C: -0.12
SCN11A → mean z-score: -0.9; z-score, replicate A: -0.9; z-score, replicate B: -0.73; z-score, replicate C: -1.07
NFKBID → mean z-score: 0.12; z-score, replicate A: 0.2; z-score, replicate B: 0.16; z-score, replicate C: -0.01
HLA-DRB1 → mean z-score: 0.71; z-score, replicate A: 0.91; z-score, replicate B: 0.69; z-score, replicate C: 0.54
PITPNA → mean z-score: -1.68; z-score, replicate A: -1.83; z-score, replicate B: -1.32; z-score, replicate C: -1.9
TM6SF1 → mean z-score: 1.18; z-score, replicate A: 1.24; z-score, replicate B: 1.35; z-score, replicate C: 0.96
C3orf52 → mean z-score: -0.49; z-score, replicate A: -0.45; z-score, replicate B: -0.86; z-score, replicate C: -0.17
SEMA4A → mean z-score: -0.51; z-score, replicate A: -0.71; z-score, replicate B: -0.19; z-score, replicate C: -0.64
HOXD3 → mean z-score: 0.04; z-score, replicate A: 0.09; z-score, replicate B: -0.11; z-score, replicate C: 0.13
